Compound potency records, mixed from different reports. Data source: NIAID ChemDB in PubChem.

Common to all: whole-cell or culture tests; agent: Candida albicans; read by: agar diffusion / agar; read-out: zone

Conditions beyond the fields shown may differ between rows.

structure | dose | strain | result
COc1ccc(Cc2ccc(OC)c(-c3nnc4sc(-c5cccc([N+](=O)[O-])c5)nn34)c2)cc1-c1nnc2sc(-c3cccc([N+](=O)[O-])c3)nn12 | 100 µg/disc | ATCC 10231 | 11 mm
CC(C)=NNC(=O)c1snnc1C(F)(F)F | 100 µg/mL | MTCC 227 | 0 mm
N#Cc1c(-c2ccccc2)csc1NC(=O)c1cc2ccccc2[nH]c1=O | 1000 µg/mL |  | 16 mm
Cc1ccc(-c2nn(-c3ccc(S(N)(=O)=O)cc3)c3nc(-c4ccc(Cl)cc4)cc(C(F)(F)F)c23)cc1 | 4000 µg/mL | MTCC 227 | 0 mm
COc1ccc(Cc2ccc(OC)c(-c3nnc4sc(-c5ccc([N+](=O)[O-])cc5)nn34)c2)cc1-c1nnc2sc(-c3ccc([N+](=O)[O-])cc3)nn12 | 100 µg/disc | ATCC 10231 | 22 mm
CCc1c(Cc2ccc(C)cc2)[nH]c(=S)[nH]c1=O | 200 µg/disc | ATCC 10231 | <10 mm
Cc1ccc(-c2cc(C(F)(F)F)c3c(-c4ccc(C)cc4)nn(-c4ccc(S(N)(=O)=O)cc4)c3n2)cc1 | 4000 µg/mL | MTCC 227 | 0 mm
COC(=O)N[C@H](C(=O)NN(CCC[C@@]1(Cc2ccccc2)C(=O)N(C2c3ccccc3C[C@H]2O)C[C@H]1O)Cc1ccc(Br)cc1)C(C)(C)C | 10 mg/mL |  | 12.8 mm
OC(Cn1cncn1)(Cn1cncn1)c1ccc(F)cc1F | 12.5 µg/mL | ATCC 60193 | 25 mm
COc1ccc(/C=C2\SC(=O)N(CC(=O)c3ccc(O)c(C(N)=O)c3)C2=O)cc1 | 5000 µg/mL | ATCC 90028 | 14 mm
NS(=O)(=O)c1ccc(-n2nc(-c3ccccc3)c3c(C(F)(F)F)cc(-c4ccc(-c5ccsc5)cc4)nc32)cc1 | 4000 µg/mL | MTCC 227 | 0 mm
N=C1C(=S)N(c2ccccc2)C(=O)N1CCCCCCN1C(=N)C(=S)N(c2ccccc2)C1=O | 100000 µM |  | 20 mm
O=C(NN=C1CCCCC1)c1snnc1C(F)(F)F | 150 µg/mL | MTCC 227 | 7 mm
COC(=O)N[C@H](C(=O)NN(CC[C@@]1(Cc2ccccc2)C(=O)N(C2c3ccccc3C[C@H]2O)C[C@H]1O)Cc1ccc(-c2ccccn2)cc1)C(C)(C)C | 10 mg/mL |  | 12.8 mm
O=C(N/N=C/c1ncc[nH]1)C12CC3CC(CC(C3)C1)C2 | 200 µg | IFO 0583 | 17 mm
Cc1ccc(-c2nn(-c3ccc(S(N)(=O)=O)cc3)c3nc(C(F)(F)F)cc(C(F)(F)F)c23)cc1 | 4000 µg/mL | MTCC 227 | 0 mm
Cc1c(Cc2ccc(Cl)cc2)nc(SCCN2C(=O)c3ccccc3C2=O)[nH]c1=O | 200 µg/disc | ATCC 10231 | 22 mm
OC(Cn1cncn1)(Cn1cncn1)c1ccc(F)cc1F | 26000 µg/mL |  | 30.64 mm
Cc1ccc(-c2nn(-c3ccc(S(N)(=O)=O)cc3)c3nc(-c4ccc(F)cc4)cc(C(F)(F)F)c23)cc1 | 4000 µg/mL | MTCC 227 | 0 mm
N=C1C(=S)N(c2cc(Cl)cc(Cl)c2)C(=O)N1CCCCCCN1C(=N)C(=S)N(c2cc(Cl)cc(Cl)c2)C1=O | 100000 µM |  | 18 mm
CN(C)/C=C/C(=O)c1nn(-c2ccccc2)cc1-c1ccc([N+](=O)[O-])cc1 | 2.5 mg/mL |  | 6 mm
CN(C)c1ccc(C=NNC(=O)c2snnc2C(F)(F)F)cc1 | 100 µg/mL | MTCC 227 | 0 mm
N=C1C(=S)N(c2ccc(Br)cc2)C(=O)N1CCCCCCN1C(=N)C(=S)N(c2ccc(Br)cc2)C1=O | 100000 µM |  | 21 mm
CCOC(=O)C1=NN(c2ccccc2)C2=Nc3nccc(-c4nn(-c5ccccc5)cc4-c4ccc([N+](=O)[O-])cc4)c3C(=O)C12 | 2.5 mg/mL |  | 6 mm
COc1ccc(/C=C2\SC(=O)N(CC(=O)c3ccc([N+](=O)[O-])cc3)C2=O)cc1 | 5000 µg/mL | ATCC 90028 | 16 mm
CCc1c(Cc2ccc(Cl)cc2)[nH]c(=S)[nH]c1=O | 200 µg/disc | ATCC 10231 | 22 mm
CC(=O)N1CCN(c2ccc(OC[C@H]3CO[C@](Cn4ccnc4)(c4ccc(Cl)cc4Cl)O3)cc2)CC1 | 20 mg/mL | C1 | 18 mm
Clc1ccccc1C(c1ccccc1)(c1ccccc1)n1ccnc1 | 100 µg | IFO 0583 | 21 mm
C#Cc1c(-c2ccccc2)csc1NC(=O)/C(C#N)=N/Nc1ccccc1 | 1000 µg/mL |  | 0 mm
C[C@@H]1[C@H](O)[C@@H](C)/C=C/C=C/C=C/C=C/C=C/C=C/C=C/[C@H](O[C@@H]2O[C@H](C)[C@@H](O)[C@H](N)[C@@H]2O)C[C@@H]2O[C@](O)(C[C@@H](O)C[C@@H](O)[C@H](O)CC[C@@H](O)C[C@@H](O)CC(=O)O[C@H]1C)C[C@H](O)[C@H]2C(=O)O | 100 µg/mL | MTCC 227 | 23.5 mm
Cc1ccc(-c2c(NCS(=O)(=O)c3ccc(C)cc3)oc3[nH]c(=O)[nH]c(=O)c23)cc1 | 100 µg/mL |  | 0 mm
COC(=O)N[C@H](C(=O)NN(CC[C@@]1(Cc2ccccc2)C(=O)N(C2c3ccccc3C[C@H]2O)C[C@H]1O)Cc1ccc(-c2ccncc2)cc1)C(C)(C)C | 10 mg/mL |  | 12.8 mm
O=C(CN1C(=O)S/C(=C\c2c(Cl)cccc2Cl)C1=O)c1ccc([N+](=O)[O-])cc1 | 5000 µg/mL | ATCC 90028 | 16 mm
O=C(NN=Cc1cccs1)c1snnc1C(F)(F)F | 150 µg/mL | MTCC 227 | 0 mm
COc1ccc(/C=C2\SC(=O)N(CC(=O)c3ccc4ccccc4c3)C2=O)cc1 | 5000 µg/mL | ATCC 90028 | 16 mm
Cc1c(Cc2ccc(Cl)cc2)[nH]c(=S)[nH]c1=O | 200 µg/disc | ATCC 10231 | 15 mm
O=C(c1cn2cnnc2nn1)c1nn(-c2ccccc2)cc1-c1ccc([N+](=O)[O-])cc1 | 2.5 mg/mL |  | 6 mm
COc1ccc(Cc2ccc(OC)c(-c3nnc4sc(-c5ccccc5Cl)nn34)c2)cc1-c1nnc2sc(-c3ccccc3Cl)nn12 | 100 µg/disc | ATCC 10231 | 8 mm
CC(C(=O)c1ccccc1)N1C(=O)S/C(=C\c2c(Cl)cccc2Cl)C1=O | 5000 µg/mL | ATCC 90028 | 24 mm
COc1ccc(Cc2ccc(OC)c(-c3nnc4sc(Cc5ccccc5)nn34)c2)cc1-c1nnc2sc(Cc3ccccc3)nn12 | 100 µg/disc | ATCC 10231 | 24 mm
N#Cc1c(-c2ccccc2)csc1NC(=O)C1C=CC(c2ccccc2)=NC1=O | 1000 µg/mL |  | 0 mm
Cc1ccc(-n2cc(-c3ccc([N+](=O)[O-])cc3)c(C(=O)/C=C/N(C)C)n2)cc1 | 2.5 mg/mL |  | 4 mm
O=C(NN=Cc1ccc([N+](=O)[O-])cc1)c1snnc1C(F)(F)F | 150 µg/mL | MTCC 227 | 0 mm
Cc1ccc(S(=O)(=O)CNc2oc3[nH]c(=O)[nH]c(=O)c3c2-c2ccc([N+](=O)[O-])cc2)cc1 | 50 µg/mL |  | 0 mm
CC(=O)N1N=C(C23CC4CC(CC(C4)C2)C3)OC1c1cc(-c2ccc(C)cc2)on1 | 200 µg | IFO 0583 | ≤10 mm
C#Cc1c(-c2ccc(Cl)cc2)c(C#N)c2nc(=O)c3c(-c4ccc(Cl)cc4)csc3n2c1N | 1000 µg/mL |  | 0 mm
CCOc1ccc(N2C(=O)N(c3ccc(-c4ccc(N5C(=N)C(=S)N(c6ccc(OCC)cc6)C5=O)cc4OC)c(OC)c3)C(=N)C2=S)cc1 | 100000 µM |  | 17 mm
CCc1c(Cc2ccc(C)cc2)nc(SCCN2CCOCC2)[nH]c1=O | 200 µg/disc | ATCC 10231 | <10 mm
O=C(NN=Cc1ccc(Cl)cc1)c1snnc1C(F)(F)F | 100 µg/mL | MTCC 227 | 0 mm
Cc1ccc(-n2cc(-c3ccc([N+](=O)[O-])cc3)c(-c3ccon3)n2)cc1 | 2.5 mg/mL |  | 6 mm
Cc1ccc(-c2nn(-c3ccc(S(N)(=O)=O)cc3)c3nc(-c4ccc(Br)cc4)cc(C(F)(F)F)c23)cc1 | 4000 µg/mL | MTCC 227 | 0 mm
[Cl][Cu+].[O-]c1cc2ccccc2cc1/C=N/NC(=S)N/N=C/c1cc2ccccc2cc1O | 2 mg/mL |  | 0 mm
Cc1ccc(-c2nn(-c3ccc(S(N)(=O)=O)cc3)c3nc(-c4ccc(-c5ccsc5)cc4)cc(C(F)(F)F)c23)cc1 | 4000 µg/mL | MTCC 227 | 0 mm
COc1ccc(N2C(=O)N(c3ccc(Oc4ccc(N5C(=N)C(=S)N(c6ccc(OC)cc6)C5=O)cc4)cc3)C(=N)C2=S)cc1 | 100000 µM |  | 26 mm

An empty or dashed field is not shown. Zone: diameter of growth inhibition.